Results of unrelated studies side by side (data: NIAID ChemDB).

Shared fields: growth or infection tests; agent: HIV-1; cell line: CEM; read-out: fold resistance

Fold resistance has wild type as its base. Rows are shuffled and stem from different studies. Blank or dashed fields: not listed here.

smiles,strain,changes,method,value
Fc1cccc(F)c1[C@@H]1SCc2nc3ccccc3n21,IIIB,RT-K103N,cytopathic effect / XTT,2.18
CCOCn1c(Cc2ccccc2)c(CC)c(=O)[nH]c1=O,IIIB HEPT-resistant (RT Y188H),RT-Y188H,syncytia,1825
Cc1ccnc2c1NC(=O)c1cccnc1N2C1CC1,,RT-E138K,cytopathic effect,1
O=C1N(Cc2ccccc2)c2cscc2S(=O)(=O)N1Cc1ccccc1,IIIB,RT-Y181C,syncytia,≥5.56
CCn1c(=O)c(C)cn([C@@H]2O[C@H](CO[Si](C)(C)C(C)(C)C)C3(OS(=O)(=O)C=C3N)[C@H]2O[Si](C)(C)C(C)(C)C)c1=O,IIIB NEV(RT-V106A),RT-V106A,syncytia,450
Cc1cn([C@@H]2O[C@H](CO[Si](C)(C)C(C)(C)C)[C@@]3(OS(=O)(=O)C=C3N)[C@H]2O[Si](C)(C)C(C)(C)C)c(=O)[nH]c1=O,IIIB,RT-Y181C,syncytia,60
Cc1cn([C@@H]2O[C@H](CO[Si](C)(C)C(C)(C)C)C3(OS(=O)(=O)C=C3N)[C@H]2O[Si](C)(C)C(C)(C)C)c(=O)n(C)c1=O,NEV(RT-V106A),RT-V106A,syncytia,92.5
CCOCn1c(Sc2ccccc2)c(CC)c(=O)[nH]c1=S,IIIB E-EBU(RT-Y181C),RT-Y181C,syncytia,≥5000
O=c1[nH]c2ccc(Cl)cc2n1Cc1c(F)cccc1F,,RT-K103N,cytopathic effect,>22.7
CC[C@H]1C(=O)Nc2ccc(F)cc2N1C(=O)OC(C)C,C-1 (RT-K101E),RT-K101E,cytopathic effect,3
Cc1cn([C@@H]2O[C@H](CO[Si](C)(C)C(C)(C)C)C3(OS(=O)(=O)C=C3N)[C@H]2O[Si](C)(C)C(C)(C)C)c(=O)n(C)c1=O,IIIB,RT-E138K,syncytia,>2080
CCc1cc(NCc2nc3c(Cl)ccc(Cl)c3o2)c(=O)[nH]c1C,IIIB,RT-E138K,syncytia,43
Cc1occc1C(=S)Nc1ccc(Cl)c(/C=N/OC(C)(C)C)c1,IIIB,RT-L100I,syncytia,21.82
Fc1cccc(F)c1C1SCc2nc3ccccc3n21,,RT-K103N,cytopathic effect,11.2
CC(C)=CCN1Cc2cc(Cl)cc3[nH]c(=S)n(c23)C[C@@H]1C,IIIB,RT-C181I,syncytia,≥250
Cc1cn([C@H]2C[C@H](N=[N+]=[N-])[C@@H](CO)O2)c(=O)[nH]c1=O,IIIB TIBO R82913 STR-1 (RT L100I Y181C),RT-L100I Y181C,syncytia,3
CCN1C(=O)N(Cc2ccccc2)S(=O)(=O)c2cscc21,,RT-Y181C,syncytia,>111
Cc1cc(C)nc(N2C(=O)CSC2c2c(Cl)cccc2Cl)n1,,RT-Y181C,cytopathic effect,101.6
CC(C)=CCN1Cc2cc(Cl)cc3[nH]c(=S)n(c23)C[C@@H]1C,IIIB,RT-M184I,p24,1
Fc1cccc(F)c1C1SCc2nc3ccccc3n21,TSAO-resistant (RT E138K),RT-E138K,cytopathic effect / MTT,1.24
C=C(C)OC(=O)N1c2cc(Cl)ccc2NC(=S)C1(C)C,Pyr(RT-Y181C),RT-Y181C,syncytia,10.4
CCOCn1c(Cc2cc(C)cc(C)c2)c(CC)c(=O)[nH]c1=O,IIIB TIBO R82913 STR-B02 (RT L100I E138K),RT-L100I E138K,syncytia,100
CCOCn1c(Cc2cc(C)cc(C)c2)c(CC)c(=O)[nH]c1=O,IIIB PYR(RT-Y181C),RT-Y181C,syncytia,123
Cc1occc1C(=S)Nc1ccc(Cl)c(/C=N/OC(C)(C)C)c1,IIIB,RT-L100I,syncytia,1.7
Fc1cccc(Cl)c1C1OCc2nc3ccccc3n21,TIBO R82150-resistant (RT L100I),RT-L100I,cytopathic effect / MTT,1.24
N#CCN1C(=O)N(Cc2ccccc2)S(=O)(=O)c2cscc21,,RT-K103N,syncytia,>250
CCOCn1c(Cc2ccccc2)c(C(C)C)c(=O)[nH]c1=O,IIIB,RT-M184V,syncytia,2
Fc1cccc(F)c1[C@H]1SCc2nc3ccccc3n21,IIIB,RT-Y181C,cytopathic effect / XTT,≥11.1
Cc1cn([C@@H]2O[C@H](CO[Si](C)(C)C(C)(C)C)C3(OS(=O)(=O)C=C3N)[C@H]2O[Si](C)(C)C(C)(C)C)c(=O)n(C)c1=O,IIIB,RT-V106A,p24,91.7
CN1C(=O)N(Cc2ccccc2)S(=O)(=O)c2cscc21,IIIB,RT-L100I,syncytia,5.61
Cc1cn([C@@H]2O[C@H](CO[Si](C)(C)C(C)(C)C)C3(OS(=O)(=O)C=C3N)[C@H]2O[Si](C)(C)C(C)(C)C)c(=O)n(C)c1=O,IIIB TIBO R82150-resistant (RT L100I),RT-L100I,syncytia,1.67
Cc1ccnc2c1NC(=O)c1cccnc1N2C1CC1,IIIB,RT-Y181C,syncytia,71.7
Cc1cn([C@H]2C[C@H](N=[N+]=[N-])[C@@H](CO)O2)c(=O)[nH]c1=O,E-2 (RT-V106A),RT-V106A,cytopathic effect,3
CN1C(=O)N(Cc2ccccc2)S(=O)(=O)c2cscc21,,RT-E138K,syncytia,>141
Cc1cn([C@@H]2O[C@H](CO[Si](C)(C)C(C)(C)C)[C@@]3(OS(=O)(=O)C=C3N)[C@H]2O[Si](C)(C)C(C)(C)C)c(=O)[nH]c1=O,IIIB TIBO R82913 STR-2 (RT K103N),RT-K103N,syncytia,6.67
COc1ccc2c(c1)N(C(=O)OC(C)C)[C@@H](CSC)C(=S)N2,IIIB,RT-M184I,p24,1
Nc1ccn([C@H]2CC[C@@H](CO)O2)c(=O)n1,IIIB nevirapine-resistant (RT Y181C),RT-Y181C,syncytia,0.4
CC(C)=CCOc1cc(NC(=S)c2ccsc2C)ccc1Cl,IIIB,RT-V179D,syncytia,6.67
Cc1ccnc(N2C(=O)CSC2c2c(Cl)cccc2Cl)n1,,RT-L100I,cytopathic effect,13.75
CC(C)=CCN1Cc2cc(Cl)cc3[nH]c(=S)n(c23)C[C@@H]1C,IIIB TIBO R82913 STR-2 (RT K103N),RT-K103N,syncytia,≥250
Cc1cn([C@@H]2O[C@H](CO[Si](C)(C)C(C)(C)C)C3(OS(=O)(=O)C=C3N)[C@H]2O[Si](C)(C)C(C)(C)C)c(=O)n(C)c1=O,IIIB,RT-V106N,cytopathic effect / XTT,117
C#CCN1C(=O)N(Cc2ccccc2)S(=O)(=O)c2cscc21,IIIB,RT-K103N,syncytia,>11.8
CC(C)Nc1cccnc1N1CCN(C(=O)c2cc3ccccc3[nH]2)CC1,NEV(RT-V106A),RT-V106A,syncytia,22
Cc1occc1C(=S)Nc1ccc(Cl)c(/C=N/OC(C)(C)C)c1,IIIB,RT-L100I,p24,1.7
N#CCN1C(=O)N(Cc2ccccc2)S(=O)(=O)c2cscc21,IIIB,RT-L100I,syncytia,6.5
CCOCn1c(Cc2ccccc2)c(C(C)C)c(=O)[nH]c1=O,A-0 (RT-L100I),RT-L100I,cytopathic effect,1
CC(C)=CCOc1cc(NC(=S)c2ccoc2C)ccc1Cl,IIIB,RT-V106A,cytopathic effect,2.5
Cc1cn([C@H]2C[C@H](N=[N+]=[N-])[C@@H](CO)O2)c(=O)[nH]c1=O,,RT-Y188H,cytopathic effect,0.57
CCOCn1c(Sc2ccccc2)c(CC)c(=O)[nH]c1=S,IIIB,RT-C181I,syncytia,65
Cc1cn([C@@H]2O[C@H](CO[Si](C)(C)C(C)(C)C)C3(OS(=O)(=O)C=C3N)[C@H]2O[Si](C)(C)C(C)(C)C)c(=O)n(C)c1=O,IIIB,RT-E138K,syncytia,182
Cc1occc1C(=S)Nc1ccc(Cl)c(C(=O)OC2CCCC2)c1,IIIB,RT-M184V,syncytia,0.6
CCN1C(=O)N(Cc2cccc(Cl)c2)S(=O)(=O)c2cscc21,,RT-L100I,syncytia,3.27
COc1cc(C)nc(N2C(=O)CSC2c2c(Cl)cccc2Cl)n1,,RT-E138K,cytopathic effect,1.7
CCNc1cccnc1N1CCN(C(=O)c2cc3cc(OC)ccc3[nH]2)CC1,IIIB NEV(RT-V106A),RT-V106A,syncytia,20
CCN1C(=O)N(Cc2ccccc2)S(=O)(=O)c2cscc21,IIIB,RT-Y188H,syncytia,>207

For reference, 7 entries again:

smiles | strain | changes | method | value
Cc1cn([C@@H]2O[C@H](CO[Si](C)(C)C(C)(C)C)C3(OS(=O)(=O)C=C3N)[C@H]2O[Si](C)(C)C(C)(C)C)c(=O)n(C)c1=O | NEV(RT-V106A) | RT-V106A | syncytia | 92.5
Cc1cn([C@@H]2O[C@H](CO[Si](C)(C)C(C)(C)C)C3(OS(=O)(=O)C=C3N)[C@H]2O[Si](C)(C)C(C)(C)C)c(=O)n(C)c1=O | IIIB | RT-E138K | syncytia | >2080
Cc1cn([C@H]2C[C@H](N=[N+]=[N-])[C@@H](CO)O2)c(=O)[nH]c1=O | IIIB TIBO R82913 STR-1 (RT L100I Y181C) | RT-L100I Y181C | syncytia | 3
Cc1cn([C@H]2C[C@H](N=[N+]=[N-])[C@@H](CO)O2)c(=O)[nH]c1=O | E-2 (RT-V106A) | RT-V106A | cytopathic effect | 3
CCOCn1c(Cc2ccccc2)c(C(C)C)c(=O)[nH]c1=O | A-0 (RT-L100I) | RT-L100I | cytopathic effect | 1
CCN1C(=O)N(Cc2cccc(Cl)c2)S(=O)(=O)c2cscc21 |  | RT-L100I | syncytia | 3.27
CCn1c(=O)c(C)cn([C@@H]2O[C@H](CO[Si](C)(C)C(C)(C)C)C3(OS(=O)(=O)C=C3N)[C@H]2O[Si](C)(C)C(C)(C)C)c1=O | IIIB NEV(RT-V106A) | RT-V106A | syncytia | 450